From US10004701B2, “Methods and compositions for treating infection” (UNIVERSITY OF ROCHESTER, priority 2012, dated 2018)

By UniProt entry, the sequences of proteins in these tests, tags left out.
UniProt P0A0K8, whole entry: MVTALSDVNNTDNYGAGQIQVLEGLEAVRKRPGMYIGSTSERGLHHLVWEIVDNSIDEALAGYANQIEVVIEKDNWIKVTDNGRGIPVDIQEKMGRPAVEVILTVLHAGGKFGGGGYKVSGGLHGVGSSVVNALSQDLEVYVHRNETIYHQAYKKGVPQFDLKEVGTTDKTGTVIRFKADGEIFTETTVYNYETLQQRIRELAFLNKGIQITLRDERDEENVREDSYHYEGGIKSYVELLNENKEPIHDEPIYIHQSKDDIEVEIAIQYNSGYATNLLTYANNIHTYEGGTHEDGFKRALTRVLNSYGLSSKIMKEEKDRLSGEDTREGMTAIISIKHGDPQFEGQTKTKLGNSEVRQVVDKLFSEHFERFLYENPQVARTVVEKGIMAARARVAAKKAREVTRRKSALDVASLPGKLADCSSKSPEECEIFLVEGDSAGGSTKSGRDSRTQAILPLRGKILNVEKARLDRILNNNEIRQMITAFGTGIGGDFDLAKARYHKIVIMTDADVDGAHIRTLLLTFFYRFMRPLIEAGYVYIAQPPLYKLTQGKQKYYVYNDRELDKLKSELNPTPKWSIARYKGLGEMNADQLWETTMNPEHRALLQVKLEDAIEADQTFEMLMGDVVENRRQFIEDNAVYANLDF
UniProt P20831, whole entry: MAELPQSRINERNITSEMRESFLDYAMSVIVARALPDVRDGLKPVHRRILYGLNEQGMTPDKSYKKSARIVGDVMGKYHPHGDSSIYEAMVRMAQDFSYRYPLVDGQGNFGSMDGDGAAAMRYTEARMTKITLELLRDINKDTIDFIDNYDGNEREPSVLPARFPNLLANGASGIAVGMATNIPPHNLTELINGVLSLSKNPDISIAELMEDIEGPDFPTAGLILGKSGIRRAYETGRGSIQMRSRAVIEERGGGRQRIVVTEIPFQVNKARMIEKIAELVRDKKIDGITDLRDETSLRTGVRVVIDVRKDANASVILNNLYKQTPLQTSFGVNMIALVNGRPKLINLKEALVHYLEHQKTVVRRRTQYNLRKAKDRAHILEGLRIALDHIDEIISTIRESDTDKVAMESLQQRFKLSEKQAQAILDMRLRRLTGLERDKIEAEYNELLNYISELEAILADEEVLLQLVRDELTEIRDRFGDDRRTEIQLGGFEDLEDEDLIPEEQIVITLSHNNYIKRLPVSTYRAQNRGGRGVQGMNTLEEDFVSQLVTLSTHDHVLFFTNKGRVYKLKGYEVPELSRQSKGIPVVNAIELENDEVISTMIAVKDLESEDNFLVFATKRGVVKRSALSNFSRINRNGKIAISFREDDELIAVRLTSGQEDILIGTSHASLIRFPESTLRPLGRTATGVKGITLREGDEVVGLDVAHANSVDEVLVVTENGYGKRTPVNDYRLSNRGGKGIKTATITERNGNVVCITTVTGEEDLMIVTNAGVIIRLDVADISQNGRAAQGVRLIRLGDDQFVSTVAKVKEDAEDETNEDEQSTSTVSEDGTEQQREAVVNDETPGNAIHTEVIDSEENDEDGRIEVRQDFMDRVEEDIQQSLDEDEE

How the values were obtained:
S. aureus = assay: Minimum Inhibitory Concentration (MIC) testing, terfenadine study; format: cell-based; details: 16 h, MHB, strain not given
S. aureus DNA gyrase = S. aureus DNA gyrase (Staphylococcus aureus, UniProt P0A0K8+P20831); assay: S. aureus DNA gyrase supercoiling assay (TopoGEN); format: biochemical; details: 37° C. 30 min

Q: Which results are given for `CC(C)(C)c1ccc(C(O)CCN2CCC(C(O)(c3ccccc3)c3ccccc3)CC2)cc1` (stereo not drawn)?
A: MIC (S. aureus): 8 µg/mL (≈ 17.5 µM); Gyrase IC50 (S. aureus DNA gyrase): 133.33 µg/mL

Q: Which results are given for `OC(c1ccccc1)(c1ccccc1)C1CCN(CCc2ccc(C(F)(F)F)cc2)CC1`?
A: MIC (S. aureus): 16 µg/mL (≈ 36.4 µM); Gyrase IC50 (S. aureus DNA gyrase): 16.67 µg/mL

Q: For `CC1(c2ccc(CCN3CCC(C(O)(c4ccccc4)c4ccccc4)CC3)cc2)COC1`, which MIC (S. aureus) is on record?
A: The MIC was over 256 µg/mL.

Q: What about the “Gyrase IC50” value (S. aureus DNA gyrase) of the same compound?
A: The value was over 333 µg/mL.

Values after ≈ are worked out from the molar mass of the structure shown. Structures were worked out from names or drawings and are uncertain.
